Test system: honeybees
Experiment: Field Assay: consumption of pollen supplement patties by honeybees
Assay type: in vivo, Apis mellifera
[1] = field tests of the formulated product

CNC(=O)c1cc(Cl)cc(C)c1NC(=O)c1cc(Br)nn1-c1ncccc1Cl [chlorantraniliprole]
consumption of treated protein by bees versus control/untreated (approximately 10 μg/g patty, 5 days in colonies): same or higher rates than control/untreated
avoidance of treated feed patties by honey bees versus untreated control patties [1]: no avoidance
preference of honey bees for patties [1]: some evidence of a preference for treated patties

Source: US20250160328A1, “COMPOSITIONS AND METHODS FOR REDUCING PARASITIC INFESTATION OF HONEY BEE HIVES” (University of Georgia Research Foundation, Inc., priority 2022, published 2025)
